# Tests used:
# Amino acid sequences for entries named in this document (tags omitted). A change or cut given only in a name is not applied to a line headed by its entry.
# UniProt Q9P8P2: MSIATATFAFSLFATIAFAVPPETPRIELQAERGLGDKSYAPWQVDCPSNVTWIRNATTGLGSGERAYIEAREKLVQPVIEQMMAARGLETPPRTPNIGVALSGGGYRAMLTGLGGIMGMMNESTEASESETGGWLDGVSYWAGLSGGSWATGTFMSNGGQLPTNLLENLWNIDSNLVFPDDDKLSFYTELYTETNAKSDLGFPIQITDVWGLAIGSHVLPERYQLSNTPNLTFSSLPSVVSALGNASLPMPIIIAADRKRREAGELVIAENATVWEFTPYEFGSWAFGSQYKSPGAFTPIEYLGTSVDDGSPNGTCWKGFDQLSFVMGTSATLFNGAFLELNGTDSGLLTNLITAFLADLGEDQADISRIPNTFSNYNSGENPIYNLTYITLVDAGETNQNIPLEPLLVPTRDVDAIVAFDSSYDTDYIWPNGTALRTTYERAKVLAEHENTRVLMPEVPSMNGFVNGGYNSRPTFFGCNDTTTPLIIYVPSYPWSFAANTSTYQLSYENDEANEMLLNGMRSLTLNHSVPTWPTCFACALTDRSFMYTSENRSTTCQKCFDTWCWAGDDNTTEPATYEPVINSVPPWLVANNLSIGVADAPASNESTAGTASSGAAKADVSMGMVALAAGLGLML
# C. neoformans ATCC 90112 = experiment: Antifungal susceptibility assay, MIC; type: cell-based, Cryptococcus neoformans
# C. albicans ATCC 10231 = experiment: Antifungal susceptibility assay, MIC; type: cell-based, Candida albicans
# C. albicans ATCC 90028 = experiment: Antifungal MIC, broad spectrum; type: cell-based, Candida albicans; conditions: Table 1b
# C. krusei 04-202328 = experiment: Antifungal MIC, broad spectrum; type: cell-based, Candida krusei; conditions: Table 1b
# C. krusei ATCC 6258 = experiment: Antifungal MIC, broad spectrum; type: cell-based, Candida krusei; conditions: Table 1b
# C. krusei ATCC 9258 = experiment: Antifungal MIC, broad spectrum; type: cell-based, Candida krusei; conditions: Table 1b
# [1] = tested on: C. parapsilosis 04-202398; experiment: Antifungal MIC, broad spectrum; type: cell-based, Candida parapsilosis; conditions: Table 1b
# [2] = tested on: C. parapsilosis ATCC 22019; experiment: Antifungal MIC, broad spectrum; type: cell-based, Candida parapsilosis; conditions: Table 1b
# C. glabrata 04-202345 = experiment: Antifungal MIC, broad spectrum; type: cell-based, Candida glabrata; conditions: Table 1b
# C. tropicalis 04-202361 = experiment: Antifungal MIC, broad spectrum; type: cell-based, Candida tropicalis; conditions: Table 1b
# C. neoformans 05-202523 = experiment: Antifungal MIC, broad spectrum; type: cell-based, Cryptococcus neoformans; conditions: Table 1b
# C. gattii 05-200122 = experiment: Antifungal MIC, broad spectrum; type: cell-based, Cryptococcus gattii; conditions: Table 1b
# A. fumigatus 05-203114 = experiment: Antifungal MIC, broad spectrum; type: cell-based, Aspergillus fumigatus; conditions: Table 1b
# A. fumigatus ATCC 204305 = experiment: Antifungal MIC, broad spectrum; type: cell-based, Aspergillus fumigatus; conditions: Table 1b
# A. flavus 05-203758 = experiment: Antifungal MIC, broad spectrum; type: cell-based, Aspergillus flavus; conditions: Table 1b
# A. flavus ATCC 204304 = experiment: Antifungal MIC, broad spectrum; type: cell-based, Aspergillus flavus; conditions: Table 1b
# A. terreus 05-202844 = experiment: Antifungal MIC, broad spectrum; type: cell-based, Aspergillus terreus; conditions: Table 1b
# S. prolificans 05-203060 = experiment: Antifungal MIC, broad spectrum; type: cell-based, Scedosporium prolificans; conditions: Table 1b
# S. apiospermum 05-203100 = experiment: Antifungal MIC, broad spectrum; type: cell-based, Scedosporium apiospermum; conditions: Table 1b
# [3] = tested on: Cunninghamella berth 99-12187; experiment: Antifungal MIC, broad spectrum; type: cell-based, Cunninghamella bertholletiae; conditions: Table 1b
# [4] = tested on: Absidia corymbifera 04-200170; experiment: Antifungal MIC, broad spectrum; type: cell-based; conditions: Table 1b
# [5] = tested on: Exophiala jeanselmei 03-200268; experiment: Antifungal MIC, broad spectrum; type: cell-based; conditions: Table 1b
# [6] = tested on: Exophiala spinifera 03-200803; experiment: Antifungal MIC, broad spectrum; type: cell-based; conditions: Table 1b
# [7] = tested on: Fusarium solani 04-203102; experiment: Antifungal MIC, broad spectrum; type: cell-based; conditions: Table 1b
# [8] = tested on: Paecilomyces lilacinus 05-200601; experiment: Antifungal MIC, broad spectrum; type: cell-based; conditions: Table 1b
# [9] = tested on: Rhizopus oryzae 05-203111; experiment: Antifungal MIC, broad spectrum; type: cell-based; conditions: Table 1b
# [10] = molecular target: Secretory Cryptococcal H99 Phospholipase B (PLB) (Cryptococcus neoformans, UniProt Q9P8P2); experiment: Phospholipase inhibition, radiometric assay; type: biochemical, C. neoformans var. grubii; conditions: read-out: Concentration required for 50% inhibition of PLB; secreted PLB activity, pH 4.0, 37° C.
Structure (SMILES),MIC C. neoformans ATCC 90112 (C. neoformans ATCC 90112; Table 1b) [µM],MIC C. albicans ATCC 10231 (C. albicans ATCC 10231; Table 1b) [µM],MIC C. albicans ATCC 90028 (C. albicans ATCC 90028) [µM],MIC C. krusei 04-202328 (C. krusei 04-202328) [µM],MIC C. krusei ATCC 6258 (C. krusei ATCC 6258) [µM],MIC C. krusei ATCC 9258 (C. krusei ATCC 9258) [µM],MIC C. parapsilosis 04-202398 [1] [µM],MIC C. parapsilosis ATCC 22019 [2] [µM],MIC C. glabrata 04-202345 (C. glabrata 04-202345) [µM],MIC C. tropicalis 04-202361 (C. tropicalis 04-202361) [µM],MIC C. neoformans 05-202523 (C. neoformans 05-202523) [µM],MIC C. gattii 05-200122 (C. gattii 05-200122) [µM],MIC A. fumigatus 05-203114 (A. fumigatus 05-203114) [µM],MIC A. fumigatus ATCC 204305 (A. fumigatus ATCC 204305) [µM],MIC A. flavus 05-203758 (A. flavus 05-203758) [µM],MIC A. flavus ATCC 204304 (A. flavus ATCC 204304) [µM],MIC A. terreus 05-202844 (A. terreus 05-202844) [µM],MIC S. prolificans 05-203060 (S. prolificans 05-203060) [µM],MIC S. apiospermum 05-203100 (S. apiospermum 05-203100) [µM],MIC Cunninghamella berth 99-12187 [3] [µM],also measured
CCCCCc1cccc[n+]1CCCCCCCCCCCC[n+]1ccccc1CCCCC,11,2.75,2.75,44,44,44,87.5,1.4,0.7,1.4,87.5,2.75,>87.5,>87.5,>87.5,>87.5,1.4,2.75,2.75,87.5,MIC C. neoformans ATCC 90112 (C. neoformans ATCC 90112; Table 1): 11 µM; MIC C. neoformans ATCC 90112 (C. neoformans ATCC 90112; Table 1c): 11 µM; MIC C. albicans ATCC 10231 (C. albicans ATCC 10231; Table 1): 2.7 µM; MIC C. albicans ATCC 10231 (C. albicans ATCC 10231; Table 1c): 2.75 µM; MIC Absidia corymbifera 04-200170 [4]: >87.5 µM; MIC Exophiala jeanselmei 03-200268 [5]: 1.4 µM; MIC Exophiala spinifera 03-200803 [6]: 0.7 µM; MIC Fusarium solani 04-203102 [7]: 44 µM; MIC Paecilomyces lilacinus 05-200601 [8]: >87.5 µM; MIC Rhizopus oryzae 05-203111 [9]: 5.5 µM
CCCCCc1cc[n+](CCCCCCCCCCCC[n+]2ccc(CCCCC)c(CCCCC)c2)cc1CCCCC,2.75,2.75,2.75,2.75,2.75,2.75,11,2.75,1.4,2.75,11,2.75,11,11,22,11,1.4,2.75,5.5,11,MIC Absidia corymbifera 04-200170 [4]: 22 µM; MIC Exophiala jeanselmei 03-200268 [5]: 2.75 µM; MIC Exophiala spinifera 03-200803 [6]: 2.75 µM; MIC Fusarium solani 04-203102 [7]: 22 µM; MIC Paecilomyces lilacinus 05-200601 [8]: 22 µM; MIC Rhizopus oryzae 05-203111 [9]: 2.75 µM
CCCCCc1cc[n+](CCCCCCCCCCCCCC[n+]2ccc(CCCCC)cc2)cc1,,,,,,,,,,,,,,,,,,,,,MIC C. neoformans ATCC 90112 (C. neoformans ATCC 90112; Table 1): 1.4 µM; MIC C. albicans ATCC 10231 (C. albicans ATCC 10231; Table 1): 0.7 µM; IC50 [10]: 6.5 µM
C=CCCCc1cc[n+](CCCCCCCCCCCC[n+]2ccc(CCCC=C)cc2)cc1,22,2.75,2.75,22,11,22,87.5,2.75,2.75,2.75,22,2.75,>87.5,>87.5,>87.5,>87.5,2.75,2.75,22,>87.5,MIC Absidia corymbifera 04-200170 [4]: >87.5 µM; MIC Exophiala jeanselmei 03-200268 [5]: 11 µM; MIC Exophiala spinifera 03-200803 [6]: 1.4 µM; MIC Fusarium solani 04-203102 [7]: 87.5 µM; MIC Paecilomyces lilacinus 05-200601 [8]: >87.5 µM; MIC Rhizopus oryzae 05-203111 [9]: 11 µM
c1cc[n+](CCCCCCCCCCCC[n+]2ccccc2)cc1,,,,,,,,,,,,,,,,,,,,,IC50 [10]: > 250 µM
